The source of these data is US20230233538A1, “COMPOSITION FOR TREATING CORONAVIRUS DISEASE-19, COMPRISING PHENANTHROINDOLIZIDINE AND PHENANTHROQUI[…] DERIVATIVES, OPTICAL ISOMER THEREOF, OR PHARMACEUTICALLY ACCEPTABLE SALTS THEREOF AS ACTIVE INGREDIENT” (priority 2020, published 2023).

The nature of this data set: in vitro. The conditions noted are these: African green monkey, Cytotoxic Concentration 50 (CC50).

By CC50 is commonly meant the concentration that lowers cell viability or growth by half. A low value points to harm at low concentration. Compound `COc1ccc2c3c(c4cc(OC)c(OC)cc4c2c1)C[C@H]1CCCCN1C3` [cryptopleurin] came in with a half-maximal cytotoxic concentration (CC50) of 62 nM.
